Test results as given in paper PMC6358911, “Rationally Designed α-Conotoxin Analogues Maintained Analgesia Activity and Weakened Side Effects” (2019).

System: C. elegans
Assay: Lethality of C. elegans
Conditions: L1-larvae, 22 °C, 48 h, three wells; vs M9 buffer control

CC(C)C[C@@H]1NC(=O)[C@H](C(C)C)NC(=O)[C@H](C)NC(=O)[C@@H]2CSSC[C@H](NC(=O)CN)C(=O)N[C@@H](CSSC[C@@H](C(N)=O)NC(=O)[C@H](Cc3ccc(O)cc3)NC1=O)C(=O)N[C@@H](CO)C(=O)N[C@@H]([C@@H](C)O)C(=O)N1CCC[C@H]1C(=O)N1CCC[C@H]1C(=O)N2
lethality, in words: significantly higher than the other groups (P<0.05); also recorded: significantly higher than control group and analogue groups (P<0.05)

Entries after “also recorded” stand apart in the source; their conditions may differ. A number of entries come with more than one value. They are shown here; other results are not. An entry can have further records. Values that stand side by side differ, and nothing given here explains why; some may be repeats, others may stem from another dose, organism or construct than stated.
